The record followed here is patent US11653679B2, “High-purity steviol glycosides” (PureCircle Sdn Bhd, priority 2014, dated 2023).

Some entries repeat one wording, which the source may state once for all of them.

The test system of one data set is Cellulase Tr. As to the kind of experiment: Stability of rebaudiosides in the presence of Cellulase Tr (Example 50). The format is biochemical, Trichoderma reesei. As to conditions: 1 mM, pH 4.5, 30° C., 24 h.
The subject of a further data set is Cellobiase As. Kind of data set: Stability of rebaudiosides in the presence of Cellobiase As (Example 50). The class given is biochemical, Aspergillus niger. As to conditions: 1 mM, pH 4.5, 30° C., 24 h.

In the case of `C=C1C[C@@]23CC[C@H]4[C@@](C)(CCC[C@@]4(C)C(=O)O[C@@H]4O[C@H](CO)[C@@H](O)[C@H](O)[C@H]4O)[C@@H]2CC[C@]1(O[C@@H]1O[C@H](CO)[C@@H](O)[C@H](O[C@@H]2O[C@H](CO)[C@@H](O)[C@H](O)[C@H]2O)[C@H]1O[C@@H]1O[C@H](CO)[C@@H](O)[C@H](O)[C@H]1O)C3` [Rebaudioside A, reference compound], the “conversion of rebaudioside in the presence of Cellulase Tr” value (shortened to “conversion … of Cellulase Tr”) in the data set with Cellulase Tr is listed as “no significant conversion”. Further, the “conversion of rebaudioside in the presence of Cellobiase As” value (from here on “conversion … of Cellobiase As”) with Cellobiase As was “no significant conversion”.

Consider `C=C1C[C@@]23CC[C@H]4[C@@](C)(CCC[C@@]4(C)C(=O)O[C@@H]4O[C@H](CO)[C@@H](O)[C@H](O)[C@H]4O[C@@H]4O[C@H](CO)[C@@H](O)[C@H](O)[C@H]4O)[C@@H]2CC[C@]1(O[C@@H]1O[C@H](CO)[C@@H](O)[C@H](O[C@@H]2O[C@H](CO)[C@@H](O)[C@H](O)[C@H]2O)[C@H]1O[C@@H]1O[C@H](CO)[C@@H](O)[C@H](O)[C@H]1O)C3` [Rebaudioside D], for which the “conversion … of Cellulase Tr” value with Cellulase Tr is “no significant conversion”. Moreover, the “conversion … of Cellobiase As” value in the data set on Cellobiase As is reported as “no significant conversion”.

As to `C=C1C[C@@]23CC[C@H]4[C@@](C)(CCC[C@@]4(C)C(=O)O[C@@H]4O[C@H](CO)[C@@H](O)[C@H](O[C@@H]5O[C@H](CO)[C@@H](O)[C@H](O)[C@H]5O)[C@H]4O[C@@H]4O[C@H](CO)[C@@H](O)[C@H](O)[C@H]4O)[C@@H]2CC[C@]1(O[C@@H]1O[C@H](CO)[C@@H](O)[C@H](O[C@@H]2O[C@H](CO)[C@@H](O)[C@H](O)[C@H]2O)[C@H]1O[C@@H]1O[C@H](CO)[C@@H](O)[C@H](O)[C@H]1O)C3` [reb M, Rebaudioside M], the “conversion … of Cellulase Tr” value with Cellulase Tr was “no significant conversion”. The “conversion … of Cellobiase As” value in the data set on Cellobiase As is “no significant conversion”.
